Source: patent publication US20120207760A1, “Compositions and Methods for the Therapy and Diagnosis of Influenza” (THERACLONE SCIENCES, published 2012)

Columns and labels:
[1] = molecular target: T1, M2 variant of A/Hong Kong/1144/1999 (H3N2), expressed on 293 cells (influenza A virus A/Hong Kong/1144/99 …); assay: flow cytometry on 293 cells transfected with natural M2 variants (FIG. 19b)
T1 chain: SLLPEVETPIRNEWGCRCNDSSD

[2] = molecular target: T2, M2 variant of A/Hong Kong/1180/1999 (H3N2), expressed on 293 cells (influenza A virus A/Hong Kong/1180/99 …); assay: as above
T2 chain: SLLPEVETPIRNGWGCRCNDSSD

B1: TCN-032 (8I10) (antibody, V domains shown)
VH: QVQLQESGPGLVKPSETLSLTCTVSGSSISNYYWSWIRQSPGKGLEWIGFIYYGGNTKYNPSLKSRVTISQDTSKSQVSLTMSSVTAAESAVYFCARASCSGGYCILDYWGQGTLVTVSS
VL: DIQMTQSPSSLSASVGDRVTITCRASQNIYKYLNWYQQRPGKAPKGLISAASGLQSGVPSRFSGSGSGTDFTLTITSLQPEDFATYYCQQSYSPPLTFGGGTRVEIK
binding result [1]: binds
binding result [2]: binds

B2: TCN-031 (23K12) (antibody, V domains shown)
VH: EVQLVESGGGLVQPGGSLRISCAASGFTVSSNYMSWVRQAPGKGLEWVSVIYSGGSTYYADSVKGRFSFSRDNSKNTVFLQMNSLRAEDTAVYYCARCLSRMRGYGLDVWGQGTTVTVSS
VL: DIQMTQSPSSLSASVGDRVTITCRTSQSISSYLNWYQQKPGKAPKLLIYAASSLQSGVPSRFSGSGSGTDFTLTISGLQPEDFATYYCQQSYSMPAFGQGTKLEIK
binding result [1]: binds
binding result [2]: binds
